Here are results for one sequence from paper PMC12784962, “https://orcid.org/0000-0002-3633-7823 Baral Joydeep Department of Bioscience and Biotechnology, Indian Institute of Technology Kharagpur, West Midnapore 721302, West Bengal, India”.

For at least one entry, the source does not settle the construct or the ends of the probe. Protein sequences can lack the tags named with them.

In this series the target is T1, mKu WT (Mycobacterium tuberculosis) (UniProt P9WKD9).
T1 sequence (looked up, limits assumed): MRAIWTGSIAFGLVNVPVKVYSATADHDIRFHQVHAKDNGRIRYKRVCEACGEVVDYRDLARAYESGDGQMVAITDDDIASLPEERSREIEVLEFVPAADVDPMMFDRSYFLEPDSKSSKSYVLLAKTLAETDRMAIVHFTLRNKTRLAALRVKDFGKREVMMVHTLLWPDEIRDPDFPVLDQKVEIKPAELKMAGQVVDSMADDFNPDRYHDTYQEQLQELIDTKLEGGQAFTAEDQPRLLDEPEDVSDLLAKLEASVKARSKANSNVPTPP
Description: cryo-EM. Conditions: 5 uM mKu dimer and 5 uM DNA, supercomplex; cryo-EM: 4 C, 30 min; recombinant protein; protein details: affinity tag (IMAC, pET16b).

In the case of “CCCCCCTGTCGCCGCCGACGTCTGTGATATGGCGTTGTTG (double strand) [linear 40-bp dsDNA]”, the binding result is reported as “binds”.
